Results of unrelated studies side by side (data: NIAID ChemDB).

Shared fields: tests on isolated targets; species: HIV-1; protein: Reverse transcriptase; endpoint: inhibition

Percent inhibition refers to the dose given; in toxicity tests it is the harm to the cells. Two numbers with a dash give a range or band. Blank or dashed fields: not listed here. Lines come from different laboratories, so protocols vary.

smiles	strain or isolate	read by	tested at	result
CCS(=O)(=O)S(=O)(=O)N1c2ccccc2C=CC1C#N	-	nucleotide incorporation	50 µM	≤30%
Nc1ncnc2c1ncn2[C@@H]1O[C@H](COP(=O)(O)O[C@@H]2[C@H](O)[C@@H](COP(=O)(O)O[C@@H]3[C@H](O)[C@@H](COP(=O)(O)O)O[C@H]3n3cnc4c(N)ncnc43)O[C@H]2n2cnc3c(N)ncnc32)[C@@H](O)[C@H]1O	IIIB	-	10 µM	18%
Fc1cccc(Cl)c1CCNC(=S)Nc1nccs1	-	nucleotide incorporation	10 µg/mL	92%
Nc1ncnc2c1ncn2[C@@H]1O[C@H](COP(=O)([O-])O[C@@H]2C[C@@H](COP(=O)([O-])O[C@@H]3C[C@@H](COP(=O)([O-])O)O[C@H]3n3cnc4c(N)ncnc43)O[C@H]2n2cnc3c(N)ncnc32)[C@@H](O)[C@H]1O	IIIB	-	10 µM	13%
CCCN1c2ccccc2N(C)C(=O)c2ccnnc21	-	-	330 µM	85%
O=C(NCCc1ccccc1)Nc1nncs1	-	nucleotide incorporation	0.1 µg/mL	12%
C=CCN1C(=O)c2cc(Cl)nnc2N(C2CC2)c2ccccc21	-	-	330 µM	57%
Cc1ccc2c(c1)N(CC1CC1)C(=O)c1ccnnc1O2	-	ELISA	33 µM	19%
Nc1ncnc2c1ncn2C1OC(CO)CC1OP(=O)(O)OCC1CC(OP(=O)(O)OCC2OC(n3cnc4c(N)ncnc43)C(O)C2O)C(n2cnc3c(N)ncnc32)O1	IIIB	-	10 µM	16%
N#CC1C=Cc2ccccc2N1C(=O)Oc1ccc(Cl)cc1	-	nucleotide incorporation	50 µM	47%
COc1ccc2c(c1)N(CCCCl)C(=O)c1ccnnc1O2	-	ELISA	330 µM	32%
C/C1=C\C=C\C2(C)C=C(CO)C(C)CC23OC([O-])C(C3=O)C(O)/C=C/C2(C)C=C(C=O)C(C)CC23OC([O-])C(C3=O)C(O)/C(C)=C/C=C/C2C=C(CO)C(C)CC23OC([O-])C(C3=O)C(O)/C=C/C2(C)C=C(C=O)C(C)CC23OC([O-])C(C3=O)C1O	IIIB	RT activity	100 µg/mL	94.9%
O=C1NC(c2c[nH]c3ccc(O)cc23)=C/C1=C1\C(=O)NC2C=CC=CC12	-	RT activity / ELISA	50 µM	8.75%
Nc1ncnc2c1ncn2[C@@H]1O[C@H](COP(=O)([O-])O)[C@@H](O)[C@H]1OP(=O)([O-])OC[C@@H]1C[C@@H](OP(=O)([O-])OC[C@@H]2C[C@@H](O)[C@H](n3cnc4c(N)ncnc43)O2)[C@H](n2cnc3c(N)ncnc32)O1	IIIB	-	10 µM	20%
O=C(NCCc1ccccc1)Nc1nc(-c2ccc(Br)cc2)cs1	-	nucleotide incorporation	10 µg/mL	1%
CC(C)COC(=O)N1c2ccccc2C=CC1C#N	-	nucleotide incorporation	50 µM	82.6%
CCN1C(=O)c2cc(Cl)nnc2N(CC)c2ccc(C)cc21	-	-	330 µM	54%
CCOC(=O)N1c2ccc([N+](=O)[O-])cc2C=CC1C#N	-	nucleotide incorporation	50 µM	48.9%
CCN1C(=O)c2cc(Cl)nnc2N(C2CC2)c2ccccc21	-	-	330 µM	49%
N#CC1C=Cc2ccccc2N1C(=O)c1ccco1	-	nucleotide incorporation	50 µM	≤30%
N#Cc1csc(NC(=O)NCCc2ccccc2)n1	-	nucleotide incorporation	10 µg/mL	94–95%
COc1ccc2c(c1)C=CC(C#N)N2C(=O)Oc1ccc(Cl)cc1	-	nucleotide incorporation	50 µM	≤30%
O=C1Nc2ccccc2Oc2nnc(Cl)cc21	-	ELISA	330 µM	22%
CCCOC(=O)N1c2ccc(OC)cc2C=CC1C#N	-	nucleotide incorporation	50 µM	73.6%
O=C(NCCc1ccccc1)Nc1nc2ccc(Cl)cc2s1	-	nucleotide incorporation	0.1 µg/mL	12%
CCCCN1C(=O)c2cc(Cl)nnc2Oc2ccc(C)cc21	-	ELISA	330 µM	27%
N#CC1C=Cc2ccccc2N1C(=O)OCCBr	-	nucleotide incorporation	50 µM	≤30%

A second listing of 4 rows from above:

smiles	strain or isolate	read by	tested at	result
Cc1ccc2c(c1)N(CC1CC1)C(=O)c1ccnnc1O2	-	ELISA	33 µM	19%
COc1ccc2c(c1)N(CCCCl)C(=O)c1ccnnc1O2	-	ELISA	330 µM	32%
N#Cc1csc(NC(=O)NCCc2ccccc2)n1	-	nucleotide incorporation	10 µg/mL	94–95%
Nc1ncnc2c1ncn2[C@@H]1O[C@H](COP(=O)([O-])O)[C@@H](O)[C@H]1OP(=O)([O-])OC[C@@H]1C[C@@H](OP(=O)([O-])OC[C@@H]2C[C@@H](O)[C@H](n3cnc4c(N)ncnc43)O2)[C@H](n2cnc3c(N)ncnc32)O1	IIIB	-	10 µM	20%